Reference: PubChem BioAssay AID1259414 (Drosophila RNAi Screening Center, 2018)
The deposit covers about 24,000 reagents; shown is an unselected part of those with a known target gene and a result. Over the whole deposit, about 1,210 (5%) got an active call. 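Inactive calls also include excluded dsRNAs with several or no targets, genes unexpressed in JW18, and well A1, regardless of score.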 Names joined by + are all predicted targets of the reagent.

Test: 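Fly genes that alter Wolbachia amount inside host cells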 (primary screen)
System: Drosophila JW18 cells infected with Wolbachia
Reagents: long dsRNA against Drosophila genes, 0.25 µg dsRNA per well of a 384-well plate
Time to read-out: 5 days
Treatment: cells persistently infected with Wolbachia before knock-down; no added drug
Detection: 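Automated imaging of bacterial rRNA staining divided by host cell count, reported as plate-normalised robust z-score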
Direction: Wolbachia per cell robust z: higher = more Wolbachia per host cell than the plate typical
Rule for the call: 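Active if absolute robust z reaches 1.5 in two or more of three replicates, leaving out multi- or no-target dsRNAs, genes unexpressed in JW18 and A1 wells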

predicted target | DRSC id | Wolbachia per cell robust z, rep 1 | Wolbachia per cell robust z, rep 2 | Wolbachia per cell robust z, rep 3 | activity call
Usp47 (GeneID 38644) | DRSC11313 | 0.0264 | -0.58 | -0.0116 | inactive
Usp47 (GeneID 38644) | DRSC41260 | 0.974 | 0.505 | 0.589 | inactive
lncRNA:CR43285 + snRNA:U1:95Cc | DRSC13640 | 0.98 | 2.33 | 1.99 | inactive
Adgf-B (GeneID 39975) | DRSC10568 | -2.8 | -0.137 | -4.04 | inactive
Adgf-B (GeneID 39975) | DRSC24118 | 1.77 | 1.55 | 0.604 | inactive
AttA (GeneID 36636) | DRSC05926 | 0.768 | 0.169 | 0.326 | inactive
AttA (GeneID 36636) | DRSC27311 | 0.417 | 0.42 | 0.913 | inactive
Mst57Db (GeneID 43122) | DRSC21551 | 0.914 | -0.352 | 0.277 | inactive
CG12746 (GeneID 40672) | DRSC12218 | -0.00932 | -5.5 | 0.0921 | inactive
escl (GeneID 34611) | DRSC02828 | -0.693 | -0.058 | -0.302 | inactive
escl (GeneID 34611) | DRSC26256 | -1.15 | -1.05 | -0.541 | inactive
Mgat4a (GeneID 39608) | DRSC09326 | -0.766 | 0.177 | 0.663 | inactive
Mgat4a (GeneID 39608) | DRSC11070 | 0.868 | -2.36 | -0.138 | inactive
csw (GeneID 45278) | DRSC18756 | 0.414 | 1.79 | 1.16 | inactive
csw (GeneID 45278) | DRSC23326 | -0.0201 | 0.123 | -1.15 | inactive
csw (GeneID 45278) | DRSC36600 | -0.307 | -0.673 | -1.46 | inactive
CG42813 (GeneID 43276) | DRSC15939 | 0.0282 | -0.106 | -0.483 | inactive
CG12831 (GeneID 35631) | DRSC06179 | -1.11 | -0.835 | 0.578 | inactive
Syt12 (GeneID 32290) | DRSC19359 | -0.584 | -1.41 | -2.17 | inactive
Nnk (GeneID 42143) | DRSC15274 | 0.017 | 1.06 | 0.651 | inactive
Nnk (GeneID 42143) | DRSC24564 | -0.135 | -0.25 | 1.64 | inactive
Tdg (GeneID 43796) | DRSC17119 | 1.42 | 1.18 | -0.275 | inactive
Tdg (GeneID 43796) | DRSC17169 | -1.13 | -0.196 | 0.245 | inactive
Tdg (GeneID 43796) | DRSC38683 | 0.0762 | 0.948 | 2.79 | inactive
RpL34b (GeneID 41120) | DRSC16475 | -0.327 | 0.461 | 1.06 | inactive
Ugt302E1 (GeneID 53508) | DRSC15635 | -2.2 | 0.674 | -2.64 | inactive
Ugt302E1 (GeneID 53508) | DRSC29326 | -0.179 | 0.71 | -7.1 | inactive
PVRAP (GeneID 38677) | DRSC10577 | -0.848 | -0.21 | -0.369 | inactive
CG9445 (GeneID 50147) | DRSC05006 | 0.543 | -1.02 | -0.0653 | inactive
seq (GeneID 3772396) | DRSC37911 | -3.02 | -1.57 | -1.14 | inactive
CG4983 (GeneID 34585) | DRSC02799 | 0.709 | -0.491 | 0.705 | inactive
CG4983 (GeneID 34585) | DRSC26444 | 0.851 | -0.147 | 1.37 | inactive
CG31076 (GeneID 318582) | DRSC16017 | 0.0286 | 1.07 | -4.25 | inactive
Mdr49 (GeneID 36428) | DRSC07466 | -1.18 | -1.33 | 0.334 | inactive
Mdr49 (GeneID 36428) | DRSC24065 | -0.379 | 0.718 | -0.259 | inactive
Nthl1 (GeneID 35365) | DRSC03183 | -3.18 | 0.417 | 0.0521 | inactive
CG11262 (GeneID 39471) | DRSC09831 | -0.134 | -1.14 | -0.0682 | inactive
CG3597 (GeneID 33420) | DRSC00617 | 2.02 | 1 | 0.86 | inactive
CG3597 (GeneID 33420) | DRSC24376 | -0.069 | -0.261 | 0.355 | inactive
Chd1 (GeneID 33505) | DRSC00745 | -0.682 | -0.0311 | -0.822 | inactive
CG14563 (GeneID 40435) | DRSC11724 | 0.69 | 0.939 | -0.571 | inactive
CG14464 (GeneID 3355132) | DRSC07760 | 0.837 | -1.96 | 0.711 | inactive
Tsp2A (GeneID 31080) | DRSC18584 | 0.785 | 0.764 | -0.0311 | inactive
CG32834 (GeneID 318238) | DRSC21929 | -0.589 | -0.965 | -0.573 | inactive
CG32834 (GeneID 318238) | DRSC28346 | 0.705 | 0.225 | 0.197 | inactive
Gmppa (GeneID 36730) | DRSC07108 | 0.806 | 0.791 | 1.42 | inactive
Gmppa (GeneID 36730) | DRSC25683 | -0.343 | 1.24 | -1.19 | inactive

Single entries from above.
For “Wolbachia per cell robust z, rep 1”, CG14563 (GeneID 40435) [DRSC11724] is entered as 0.69
Under “Wolbachia per cell robust z, rep 2”, Mst57Db (GeneID 43122) [DRSC21551] has -0.352
escl (GeneID 34611) [DRSC26256], Wolbachia per cell robust z, rep 2: -1.05
Under “activity call”, Nnk (GeneID 42143) [DRSC15274] shows inactive
